Anti-infective test results gathered from many reports (values: NIAID ChemDB through PubChem).

Common to all: growth or infection tests; agent: HIV-1; method: cytopathic effect / MTT; endpoint: EC50

An empty or dashed field is not shown. Two numbers with a dash give a range or band. Conditions beyond the fields shown may differ between rows. ECn: concentration that inhibits the pathogen or its effect by n%.

compound	strain	mutations	cells	result
COc1ncnc(NS(=O)(=O)c2ccc(N=C3C(=O)Nc4ccccc43)cc2)c1OC	LAI		MT-4	>104 µg/mL
CC[C@H](C)[C@H](NC(=O)C(C)N(C(=O)[C@H](Cc1ccccc1)NC(=O)[C@H](C)NC(=O)OC(C)(C)C)C(Cl)CCl)C(=O)N[C@H](C(=O)OC)C(C)C	LAI		CEM	>100 µg/mL
CN1c2ccccc2C2C1C=CC(=O)N2c1ccc(-c2nc(=S)o[nH]2)cc1	LAI		MT-4	>32 µM
CCc1c(C(=O)c2cc(C(F)(F)F)cc(C(F)(F)F)c2)n(Cc2ccncc2)c(=O)[nH]c1=O			MT-4	1.935 µg/mL
CCc1c(Cc2cccc(Cc3[nH]c(=O)[nH]c(=O)c3CC)c2)[nH]c(=O)[nH]c1=O			MT-4	>100 µM
N#CC1=CC2Nc3ccccc3C2N(c2ccc(F)cc2)C1=O	LAI		MT-4	>32 µM
C=C(C)[C@@H]1CC[C@]2(C(=O)NCCCCCCCC(=O)N[C@@H](CC(C)C)[C@@H](O)CC(=O)O)CC[C@]3(C)[C@H](CC[C@@H]4[C@@]5(C)CC[C@H](O)C(C)(C)[C@@H]5CC[C@]43C)[C@@H]12	NDK		CEM + CEM-4	>5 µM
COc1ccc(/C=C/CSc2nc(Cc3c(F)cccc3F)c(C)c(=O)[nH]2)cc1	NNRTI-resistant	RT-K103N	MT-4	>393 µM
COc1ncnc(NS(=O)(=O)c2ccc(N=C3C(=O)N(CN(C)C)c4ccccc43)cc2)c1OC	LAI		MT-4	>2 µg/mL
O=C(O)c1cccc(Cc2cccc(C(=O)O)c2O)c1O	IIIB		MT-4	>40 µg/mL
Cc1nn(C(C)C)c(Sc2cc(Cl)cc(Cl)c2)c1COCc1ccncc1	HXB2		MT-4 + MT4	0.004 µM
O=C(O)C1=CC(=C(c2ccc(O)c(C(=O)O)c2)c2ccc(O)c(C(=O)O)c2)C=C(Cc2ccc(O)c(C(=O)O)c2)C1=O	IIIB		MT-4	2.5 µg/mL
FC(F)(F)c1ccc(C2SCc3nc4ccccc4n32)cc1	RF		CEM	>100 µM
CCc1c(C(=O)c2cc(C)cc(C)c2)n(Cc2ccc([N+](=O)[O-])cc2)c(=O)[nH]c1=O			MT-4	0.009 µg/mL
O=S(=O)(O)O.OCC(O)C(O)C(OC1OC(CO)C(O)C(OC2OC(CO)C(O)C(OC3OC(CO)C(O)C(OC4OC(CO)C(O)C(OC5OC(CO)C(O)C(O)C5O)C4O)C3O)C2O)C1O)C(O)CO	IIIB		MT-4	>300 µg/mL
Cc1cc(C)cc(C(=O)c2c(C(C)C)c(=O)[nH]c(=O)n2Cc2ccnc(C#N)c2)c1			MT-4	0.0016 µg/mL
C=Cc1cc(N(CC)CC)nc(S(=O)(=O)Cc2ccc(OC)cc2)n1	NNRTI-resistant	RT-K103N	MT-4	>42.9 µM
Cc1cc(Cl)cc(Cl)c1Oc1nc(N)nc(Nc2ccc(C#N)cc2)n1	IIIB		MT-4	0.004 µM
CCc1c(C(=O)c2cc(F)cc(F)c2)n(Cc2cc(C)nc(C)c2)c(=O)[nH]c1=O			MT-4	0.0151 µg/mL
C=CCN(CC(=O)N[C@H](C(=O)N[C@H](C(=O)OC)C(C)C)[C@@H](C)CC)C(=O)[C@H](Cc1ccccc1)NC(=O)[C@H](C)NC(=O)OC(C)(C)C	LAI		CEM	8.15 µg/mL
CCc1c(Cc2cccc(Cc3nc(N(C)C)[nH]c(=O)c3CC)c2)nc(N(C)C)[nH]c1=O	RT-K103N+Y181C NNRTI-resistant	RT-K103N Y181C	MT-4	>100 µM
CCc1c(Cc2c(Cl)cccc2Cl)nc(SC/C=C/c2ccc(C#N)cc2)[nH]c1=O	NNRTI-resistant	RT-K103N	MT-4	>34.82 µM
CCOCn1c(C(=O)C=C(C)C)c(CC)c(=O)[nH]c1=O	IIIB WT		MT-4	3.9 µM
CCOCn1c(Cc2cccc(Cc3c(CC)c(=O)[nH]c(=O)n3COCC)c2)c(CC)c(=O)[nH]c1=O	NNRTI-resistant	RT-Y181C	MT-4	>100 µM
Cc1cc(CF)cc(C(=O)c2c(C(C)C)c(=O)[nH]c(=O)n2Cc2cc(C)nc(C)c2)c1			MT-4	0.0025 µg/mL
COc1ncnc(NS(=O)(=O)c2ccc(N=C3C(=O)N(CN4CCOCC4)c4ccc(C)cc43)cc2)c1OC	LAI		MT-4	>8.9 µg/mL
Cc1cc(C)cc(C(=O)c2c(C(C)C)c(=O)[nH]c(=O)n2Cc2cc(C)nc(C)c2)c1			MT-4	0.001 µg/mL
COc1cnc(CN=Cc2c(O)[nH]c3ccc(S(=O)(=O)N(CC(C)C)C[C@@H](O)[C@H](Cc4ccccc4)NC(=O)O[C@H]4CO[C@H]5OCC[C@H]54)cc23)c(OC)c1C	HXB2 Recombinant		MT-4	0.03 µM
CC(C)CCC[C@@H](C)[C@H]1CC[C@H]2[C@@H]3CC[C@H]4C[C@@H](CCC=C(c5cc(Cl)c(OCc6ccc(C(=O)O)cc6)c(C(=O)O)c5)c5cc(Cl)c(OCc6ccc(C(=O)O)cc6)c(C(=O)O)c5)CC[C@]4(C)[C@H]3CC[C@]12C	IIIB		MT-4	1.4 µM
CCN(CC)CN1C(=O)C(=Nc2ccc(S(=O)(=O)Nc3ncnc(OC)c3OC)cc2)c2ccccc21	LAI		MT-4	>118 µg/mL
Cc1cn(CCCO[C@H]2C=C[C@@H](CO)O2)c(=O)[nH]c1=O	IIIB		MT-4	>20 µg/mL
CCc1c(Cc2cccc(Cc3nc(SC(C)C)[nH]c(=O)c3CC)c2)nc(SC(C)C)[nH]c1=O	NNRTI-resistant	RT-Y181C	MT-4	>36 µM
Cc1cc(Cn2c(C(=O)c3cc(F)cc(F)c3)c(C(C)C)c(=O)[nH]c2=O)cc(C)n1			MT-4	0.0044 µg/mL
COc1ccc(N2C(=O)C(C#N)=CC3C2c2ccccc2N3C)cc1	LAI		MT-4	1–32 µM
COc1ncnc(NS(=O)(=O)c2ccc(N=C3C(=O)N(CN4CCOCC4)c4ccccc43)cc2)c1OC	LAI		MT-4	>2 µg/mL
Cn1c2ccccc2c2c1cc(C#N)c(=O)n2-c1ccc([N+](=O)[O-])cc1	D	RT-L100I K103N	MT-4	0.05 µM
CCOCn1c(Cc2ccccc2)c(C(C)C)c(=O)[nH]c1=O	IIIB WT		MT-4	0.031 µM
N[C@@H](Cc1ccc(OS(=O)(=O)[O-])cc1)C(=O)O.[Na+]	IIIB		MT-4	1.22 µg/mL
Cc1cc(C)cc(C(=O)c2c(C(C)C)c(=O)[nH]c(=O)n2Cc2ccc([N+](=O)[O-])cc2)c1			MT-4	0.005 µg/mL

A second listing of 5 rows from above:

compound	strain	mutations	cells	result
CCc1c(C(=O)c2cc(F)cc(F)c2)n(Cc2cc(C)nc(C)c2)c(=O)[nH]c1=O			MT-4	0.0151 µg/mL
Cc1cc(Cl)cc(Cl)c1Oc1nc(N)nc(Nc2ccc(C#N)cc2)n1	IIIB		MT-4	0.004 µM
CCN(CC)CN1C(=O)C(=Nc2ccc(S(=O)(=O)Nc3ncnc(OC)c3OC)cc2)c2ccccc21	LAI		MT-4	>118 µg/mL
CCc1c(Cc2cccc(Cc3nc(N(C)C)[nH]c(=O)c3CC)c2)nc(N(C)C)[nH]c1=O	RT-K103N+Y181C NNRTI-resistant	RT-K103N Y181C	MT-4	>100 µM
CCOCn1c(Cc2cccc(Cc3c(CC)c(=O)[nH]c(=O)n3COCC)c2)c(CC)c(=O)[nH]c1=O	NNRTI-resistant	RT-Y181C	MT-4	>100 µM